From ChEMBL document CHEMBL1142087 (Antimicrob Agents Chemother, 2007)

Columns and labels:
Influenza A virus [1] = assay: Inhibition of influenza A virus (A/duck/Minnesota/1525/1981 (H5N1)) replication in MDCK cells by neutral red uptake assay
Influenza A virus [2] = assay: Inhibition of Influenza A virus (A/gull/Pennsylvania/4175/83 (H5N1)) replication in MDCK cells by neutral red uptake assay

| SMILES | EC50 (Influenza A virus [1]) | EC50 (Influenza A virus [2]) |
| --- | --- | --- |
| NC(=O)c1nc(F)cnc1O | 4.5 µM | – |
| CCOC(=O)C1=C[C@@H](OC(CC)CC)[C@H](NC(C)=O)[C@@H](N)C1 [OSELTAMIVIR] | – | 0.28 µM |
